Data set [1] deals with PagRBc (Bacillus cereus F4810/72 (AH187), plasmid pCER270). The experiment in a line: EMSA. The following applies: competing EMSAunspec7 present; recombinant protein; residues 1-99; protein details: C-terminal His6; probe letters rebuilt from the primers and the genome. (In EMSA bound probe runs differently from free probe, usually more slowly.)
The test system of data set [2] is PagR1Bc (Bacillus cereus F4810/72 (AH187), plasmid pCER270). Kind of data set: EMSA. Conditions: competing EMSAunspec7 present; recombinant protein; residues 1-97; protein details: N-terminal His6; probe letters rebuilt from the primers and the genome.

Construct, isoform or probe ends are uncertain for at least one entry.

A word on the Kd: it is the concentration at which binding is half-saturated. On to “GTGTTTCATTGAAAAATCCCTCTTTTAAAAAAAGTAAAATACAAAAACATTCATTTTCCTTAATACATTATTAACTTTTCTTCGCACAAGTTAATTAACCAAAATTATACAATTTTCATTATAAACAATTATTAATATTCACGCAATACGAATTATTAGAATATTAATAATTTTATTTATTTCAATTTCATACGGGTACGGCAACGATTACTTTTTTGGGGACTCGTTATATTGGCTAACAGAATTGGTATTCCGTTAACTTTTTATATTGATTTTGAAAACATTTGTTTACAGAATATAGATAAATCATTATAAAAATGTGTTTACAGAACTAATTTTTACAGGTTTTCTTGTAGTATTGTAATAAAATTTAATAAAAAGAACACAGCTATCCTTAGGAATCCGAATTAGAAATTACTGAATACAACATCAAAAAAATTATCAGATCGTAGCCGAAAGCCAAGAGGTTTCTTATCACCATGTATATCAATGAATAAGAAGTTAGAAGCACACGTTGAAGAAG (double strand) [cesP main promoter (cesPII), 523 bp]”, for which the Kd in data set [1] worked out at 25 nM; in data set [2], 150 nM.
